Here are results for ten substances from US10723727B2 (priority 2016, dated 2020).

The nature of one data set: general procedure: solution-phase peptide synthesis; HATU/DIPEA; TPTU/DIPEA; pentafluorophenyl esters. The note with it: conjugation step, TFA salt (B1, B2, B3, B6).
Consider “1,2-dimethyl-D-prolyl-N-[(1R,3R)-1-(acetyloxy)-1-(4-{[(2R,4S)-5-{(2Z)-2-[1-(4-{[5-(2,5-dioxo-2,5-dihydro-1H-pyrrol-1-yl)pentyl]oxy}phenyl)ethylidene]hydrazinyl}-4-methyl-5-oxo-1-phenylpentan-2-yl]carbamoyl}-1,3-thiazol-2-yl)-4-methylpentan-3-yl]-N-methyl-L-isoleucinamide”, for which the conjugation yield stood at 20%.

Staying with this data set, now noted: coupling step, TFA salt (B1, B2, B3, B6).
On to “(1R,3R)-1-(4-{[(2S,4R)-1-(4-aminophenyl)-4-(diethoxyphosphoryl)pentan-2-yl]carbamoyl}-1,3-thiazol-2-yl)-4-methyl-3-[methyl(N-{[(2R)-1-methylpiperidin-2-yl]carbonyl}-L-isoleucyl)amino]pentyl Acetate”, for which the step yield was determined as 39%.

Turning to “1,2-dimethyl-D-prolyl-N-[(1R,3R)-1-(acetylamino)-1-(4-{[(2R,4S)-5-ethoxy-4-methyl-5-oxo-1-phenylpentan-2-yl]carbamoyl}-1,3-thiazol-2-yl)-4-methylpentan-3-yl]-N-methyl-L-isoleucinamide”, the step yield turned out to be 49%.

For “1,2-dimethyl-D-prolyl-N-[(1R,3R)-1-(acetyloxy)-1-(4-{[(2R,4S)-5-ethoxy-4-methyl-5-oxo-1-phenylpentan-2-yl]carbamoyl}-1,3-thiazol-2-yl)-4-methylpentan-3-yl]-N-methyl-L-isoleucinamide”, the step yield turned out to be 7.7%.

For the substance “1,2-dimethyl-D-prolyl-N-[(1R,3R)-1-(acetylamino)-1-(4-{[(2R,4S)-4-carboxy-1-phenylpentan-2-yl]carbamoyl}-1,3-thiazol-2-yl)-4-methylpentan-3-yl]-N-methyl-L-isoleucinamide”, the step yield worked out at 46%.

For the substance “methyl (2S,4R)-4-[({2-[(1R,3R)-1-(acetyloxy)-4-methyl-3-{methyl[(2S,3S)-3-methyl-2-{[(7-methyl-7-azabicyclo[2.2.1]hept-1-yl)carbonyl]amino}pentanoyl]amino}pentyl]-1,3-thiazol-4-yl}carbonyl)amino]-2-methyl-5-phenylpentanoate”, the step yield is 60%.

As to “1,2-dimethyl-D-prolyl-N-[(1R,3R)-1-(4-{[(2R,4S)-4-carboxy-1-phenylpentan-2-yl]carbamoyl}-1,3-thiazol-2-yl)-1-hydroxy-4-methylpentan-3-yl]-N-methyl-L-isoleucinamide”, the step yield worked out at 81%.

Take “(1R,3R)-1-(4-{[(2S,4S)-1-(4-aminophenyl)-4-(diethoxyphosphoryl)pentan-2-yl]carbamoyl}-1,3-thiazol-2-yl)-4-methyl-3-[methyl(N-{[(2R)-1-methylpiperidin-2-yl]carbonyl}-L-isoleucyl)amino]pentyl Acetate”: the step yield is reported as 30%.

As for “N,N,-2-trimethylalanyl-N-[(1R,3R)-1-(acetyloxy)-1-(4-{[(2R,4S)-5-methoxy-4-methyl-5-oxo-1-phenylpentan-2-yl]carbamoyl}-1,3-thiazol-2-yl)-4-methylpentan-3-yl]-N-methyl-L-isoleucinamide”, the step yield is reported as 58%.

The data set is the same for the next values; noted with them: coupling step, trifluoroacetate salt.
For the substance “1,2-dimethyl-L-prolyl-N-[(1R,3R)-1-(acetyloxy)-1-(4-{[(2R,4S)-5-methoxy-4-methyl-5-oxo-1-phenylpentan-2-yl]carbamoyl}-1,3-thiazol-2-yl)-4-methylpentan-3-yl]-N-methyl-L-isoleucinamide”, the step yield turned out to be 30%.
